Measured values from several laboratories, pooled; numbers as filed in NIAID ChemDB.

Shared fields: growth or infection tests; agent: Bovine viral diarrhea virus; cell line: MDBK

Neighbouring rows are from separate reports. Inhibition is in % at the dose shown (toxicity tests: loss of growth or viability). ECn: concentration that inhibits the pathogen or its effect by n%. An empty or dashed field is not shown.

structure	read-out	method	dose	strain	result
Brc1ccc(Cn2ccc3nc(-c4ccccc4)nc-3c2)cc1	EC50	cytopathic effect		NADL (TYPE 1)	0.04 µM
COc1ccc(Cn2ccc3nc(-c4ccccc4)nc-3c2)cc1	EC50	cytopathic effect		PE515	0.032 µg/mL
O=C1Nc2ccc([N+](=O)[O-])cc2/C1=N/N=C1/SCC(=O)N1c1ccc(Cl)cc1	EC50	cytopathic effect			>2 µg/mL
Cc1c(-c2ccc(C(=N)N)cc2)oc(-c2ccc(C(=N)N)cc2)c1C	inhibition		25 µM		>99%
CCN1C(=O)CS/C1=N/N=C1\C(=O)Nc2ccc([N+](=O)[O-])cc21	EC50	cytopathic effect			>17 µg/mL
CO/N=C(/N)c1ccc(-c2ccc(-c3ccc(/C(N)=N\OC)cc3)o2)cc1	inhibition		25 µM		0%
Clc1ccccc1-c1nc2ccn(Cc3ccc(Br)cc3)cc-2n1	EC50	cytopathic effect		PE515	0.351 µg/mL
N=C(N)c1ccc(-c2ccc(-c3nc4ccc(C(=N)N)cc4[nH]3)o2)cc1	inhibition		5 µM		43%
Cc1ccc(N2C(=O)C(C)S/C2=N/N=C2\C(=O)Nc3ccc([N+](=O)[O-])cc32)cc1	EC50	cytopathic effect			>41 µg/mL
CC(C)(C)c1ccc(Cn2ccc3nc(-c4ccccc4)nc-3c2)cc1	EC50	cytopathic effect		PE515	0.07 µg/mL
C=CCNC(=S)N=Nc1c(O)n(CN2CCOCC2)c2ccc([N+](=O)[O-])cc12	EC50	cytopathic effect			40 µg/mL
Fc1cc(F)c(Cn2ccc3nc(-c4c(F)cccc4F)nc-3c2)c(F)c1	EC50	cytopathic effect		PE515	0.365 µg/mL
CCCN(CCC)CCSc1nnc2c(n1)[nH]c1ccccc12	EC50	plaque count		F78I	0.0004 µM
Cc1ccc(Cn2ccc3nc(-c4ccccc4)nc-3c2)cc1	EC50	cytopathic effect		PE515	0.043 µg/mL
O=[N+]([O-])c1ccc2c(c1)c(N=NC(=S)Nc1ccc(Cl)cc1)c(O)n2CN1CCCCC1	EC50	cytopathic effect			>19 µg/mL

2 of the rows above, restated:

structure | read-out | method | dose | strain | result
Cc1ccc(N2C(=O)C(C)S/C2=N/N=C2\C(=O)Nc3ccc([N+](=O)[O-])cc32)cc1 | EC50 | cytopathic effect |  |  | >41 µg/mL
O=[N+]([O-])c1ccc2c(c1)c(N=NC(=S)Nc1ccc(Cl)cc1)c(O)n2CN1CCCCC1 | EC50 | cytopathic effect |  |  | >19 µg/mL